Drawing on ChEMBL document CHEMBL1629661, “Carbapenem resistance among Pseudomonas aeruginosa strains from India: evidence for nationwide endemicity of multiple metallo-beta-lactamase clones (VIM-2, -5, -6, and -11 and the newly characterized VIM-18)” (2009), this text covers Ratio for one molecule.

SMILES strings stand for the structures. Some results are limits rather than exact numbers.

In this experiment the test system is Escherichia coli. The experiment can be described thus: Ratio of MIC for Escherichia coli harboring beta-lactamase VIM-2 to MIC for Escherichia coli harboring beta-lactamase VIM-18. The format is functional.

With `CC1(C)S[C@@H]2[C@H](NC(=O)[C@H](N)c3ccccc3)C(=O)N2[C@H]1C(=O)O` [AMPICILLIN], the Ratio is reported as over 3.
